Pooled drug test results. Numbers come from NIAID ChemDB, via PubChem.

All rows: tests on isolated targets; organism: Hepatitis C virus; protein: Nonstructural protein 5B

An empty or dashed field is not shown. Inhibition is in % at the dose shown (toxicity tests: loss of growth or viability). Two numbers with a dash give a range or band. Fold resistance has wild type as its base. Lines come from different laboratories, so protocols vary. ICn is the concentration giving n% inhibition.

smiles,endpoint,conditions,changes,tested at,method,strain,value
O=C(Nc1ccc2[nH]ncc2c1)c1cc(N2CCC(O)CC2)c(F)cc1F,inhibition,-,-,0.1 µg/mL,-,-,30%
Cc1nc(N)c2ncn([C@@H]3O[C@H](COC(=O)c4ccc(S(=O)(=O)F)cc4)[C@@H](O)[C@H]3O)c2n1,IC50,-,-,-,-,-,>1000 µM
COc1cc(OC)c(CCC2(C3CCCC3)CC(O)=C(Sc3nc4nc(C)cc(C)n4n3)C(=O)O2)cc1Cl,IC50,-,-,-,-,-,<1 µM
O=C(Nc1ccc2cn[nH]c2c1)c1cc(N2CCNCC2)c(F)cc1F,inhibition,-,-,10 µg/mL,-,-,40%
O=C(OC[C@H]1O[C@@H](n2cnc3c(=O)[nH]cnc32)[C@H](O)[C@@H]1O)c1ccc(S(=O)(=O)F)cc1,IC50,-,-,-,-,-,80 µM
O=C1CC(=O)OC(CCc2ccc(N3CCCC3=O)c(F)c2)(C2CCCC2)C1,IC50,-,-,-,-,-,1–10 µM
NC(=O)c1ncn([C@@H]2O[C@H](COC(=O)c3ccc(S(=O)(=O)F)cc3)[C@@H](O)[C@H]2O)n1,IC50,-,-,-,-,-,>1000 µM
COc1cc(OC)c(CCC2(C3CCCC3)CC(O)=C(Sc3n[nH]c(=O)n3C)C(=O)O2)cc1Cl,IC50,-,-,-,-,-,<1 µM
C[C@@]1(O)[C@H](O)[C@@H](COP(=O)(O)OP(=O)(O)OP(=O)(O)O)O[C@H]1c1ccc2c(N)ncnn12,IC50,-,-,-,nucleotide incorporation,GT1a,0.57 µM
O=C(Nc1ccc2[nH]ncc2c1)c1cc(NCc2ccccn2)c(F)cc1F,inhibition,-,-,10 µg/mL,-,-,78%
C[C@@]1(O)[C@H](O)[C@@H](COP(=O)(O)OP(=O)(O)OP(=O)(O)O)O[C@@]1(C#N)c1ccc2c(N)ncnn12,fold resistance,-,S282T,-,radiometric,2a JFH-1,91
O=C(Nc1ccc2cn[nH]c2c1)c1cc(C2CCNCCN2)c(F)cc1F,inhibition,-,-,10 µg/mL,-,-,76%
O=c1ccn([C@@H]2O[C@H](CO)[C@@H]3C[C@@]32F)c(=O)[nH]1,IC50,genotype 1b,-,-,nucleotide incorporation,-,>100 µM
O=C(OC[C@H]1O[C@@H](n2cnc3c(=O)[nH]cnc32)[C@H](O)[C@@H]1O)c1ccc(S(=O)(=O)F)cc1,IC50,-,-,-,-,-,80 µM
CC1=NCCN1c1cc(C(=O)Nc2ccc3[nH]ncc3c2)c(F)cc1F,inhibition,-,-,10 µg/mL,-,-,55%
COc1cc(F)c(CCC2(C3CCCC3)CC(=O)CC(=O)O2)cc1F,IC50,-,-,-,-,-,1–10 µM
O=C(NO)c1sc2ccccc2c1S(=O)(=O)c1ccccc1,inhibition,genotype 1b,-,50 µM,scintillation proximity / radiometric,-,<15%
O=C(Nc1ccc2cn[nH]c2c1)c1cc(NCc2ccccn2)c(F)cc1F,inhibition,-,-,10 µg/mL,-,-,77%